Pooled drug test results. Numbers come from NIAID ChemDB, via PubChem.

All rows: whole-cell or culture tests; organism: Mycobacterium tuberculosis

Inhibition is in % at the dose shown (toxicity tests: loss of growth or viability). ECn is the concentration giving n% inhibition of infection, replication or growth. MIC bound: limit read from a one-dose screen. A number after MIC or MFC names an inhibition level or a share of isolates. Lines come from different laboratories, so protocols vary. Blank or dashed fields: not listed here.

SMILES | measure | method | dose | strain | changes | value
Nc1nnc(-c2ccncc2)s1 | MIC |  |  | H37Rv |  | 5 µg/mL
Cc1ccccc1Sc1ncccn1 | MIC90 |  |  | H37Rv |  | >6.25 µg/mL
CCOC(=O)c1c(NC(C)=O)sc2c1CCN(C(=O)OC(C)(C)C)C2 | MIC | resazurin |  | H37Rv |  | >200 µM
COc1ccc(-c2noc(C3=CC4(CCN(CC5CCCO5)CC4)c4ccccc43)n2)cc1 | MIC | resazurin |  | 19000 | Rifampicin-resistant | 0.39 µM
CC(C)(C)C(=O)Nc1ccc(S(=O)(=O)Nc2nccs2)cc1 | MIC |  |  | H37Rv |  | 10 µg/mL
CN(C)c1ccc(N=C2C=CC(=O)C(Cl)=C2)cc1 | MIC bound | BACTEC |  | H37Rv |  | >12.5 µg/mL
CCOC(=O)c1c(NC(=O)c2ccccc2)sc2c1CCCC2 | MIC | resazurin |  | H37Rv |  | >600 µM
Cc1c([N+](=O)[O-])c(=O)oc2ccc3c(=O)ccoc3c12 | inhibition | BACTEC | 12.5 µg/mL | H37Rv |  | 8%
CCOC(=O)c1c(N)sc2c1CCN(CC)C2 | MIC | resazurin |  | H37Rv |  | >300 µM
CN1CCN(c2ccccc2NCc2cccc3ccccc23)CC1 | MIC |  |  | 103471 |  | 4 µg/mL
CCc1cc(Cc2cc(CC)c(NC(=O)C(=O)Cc3ccccn3)c(CC)c2Cl)c(Cl)c(CC)c1NC(=O)C(=O)Cc1ccccn1 | inhibition | BACTEC | 12.5 µg/mL | H37Rv |  | 1%
CCc1nc2sc(C)cn2c1C(=O)NCc1ccc(N2CCN(S(=O)(=O)C(F)(F)F)C=N2)cc1 | EC50 | fluorescence |  |  |  | 0.0032 µM
C/C=C/C=C/[C@@H]1O[C@](O)([C@H](OC)C(=O)NC/C=C/C=C(/C)[C@@H](OC)[C@@H](C)[C@@H]2O[C@H](/C=C/C=C/C=C(\C)C(=O)c3c(O)cc[nH]c3=O)[C@H](O)[C@@H]2O)[C@H](O)[C@H](O)C1(C)C | inhibition | BACTEC | 12.5 µg/mL | H37Rv |  | 8%
CCc1nc2ncccn2c1C(=O)NCc1ccc(N2CCN(S(=O)(=O)C(F)(F)F)C=N2)cc1 | EC50 | fluorescence |  |  |  | 0.079 µM
CC1=CC[C@@]2(C)[C@@H]([C@@H]1C)[C@H]1CCC3[C@@]4(C)CC[C@H](O)C(C)(C)[C@@H]4CC[C@@]3(C)[C@]1(C)C[C@@H]2O | MIC |  |  | H37Rv |  | 16 µg/mL
O=[N+]([O-])c1cn(C2CCCCC2O)c([N+](=O)[O-])n1 | MIC |  |  | H37Rv |  | 62.5 µg/mL
CC1(C)CC[C@]2(C(=O)O)CC[C@]3(C)C(=CCC4[C@@]5(C)CC[C@H](O)C(C)(C)C5CC[C@]43C)C2C1 | MIC |  |  | H37Rv |  | 25 µg/mL
O=[N+]([O-])c1cn2c(n1)OC1CCCCC12 | MIC |  |  | H37Rv |  | 31.2 µg/mL
NC(=O)c1cnccn1 | MIC |  |  | ATCC 25618 niacin-positive |  | 64 µg/mL
c1cc2c(s1)CCOC21CCN(C2CCCCC2)CC1 | EC50 |  |  | H37Rv |  | >100 µM
CCc1nc2nc(N(C)C)c(Cl)cn2c1C(=O)NCc1ccc(N2CCN(S(=O)(=O)C(F)(F)F)C=N2)c(F)c1 | EC50 | fluorescence |  |  |  | 0.2 µM
COc1cccc2c1[n+]([O-])c1cccc(O)c1[n+]2[O-] | MIC |  |  | PAS-R |  | 0.8 µg/mL
CCn1cc(C(=O)O)c(=O)c2cc(F)c(N3CCN(c4nnc(SCC(=O)c5ccc(F)cc5)s4)C(C)C3)c(OC)c21 | MIC90 | broth dilution |  | H37Rv |  | 5 µg/mL
CC(C)(C)c1ccc(CSc2nc(=O)[nH]c3nc[nH]c23)cc1 | inhibition |  | 6.25 µg/mL | H37Rv |  | 32%
C1=C(c2nc(-c3cccnc3)no2)c2ccccc2C12CCN(CC1CCCO1)CC2 | MIC | turbidity |  | TB375 | Spiroindene-resistant | >31 µM
CCOC(=O)c1cc(-c2ccccc2)sc1NC(C)=O | MIC | resazurin |  | H37Rv |  | >300 µM
CCOC(=O)c1cc(N/N=C2/CCCNC2=O)c[nH]1 | MIC bound | BACTEC |  | H37Rv |  | >6.25 µg/mL
CCCCCCCC1(C)Cn2cc([N+](=O)[O-])nc2O1 | MIC |  |  | H37Rv |  | 0.0037 µg/mL
CCOC(=O)c1c(NC(=O)c2c(F)c(F)c(F)c(F)c2F)sc2c1CCN(CC)C2 | MIC | resazurin |  | H37Rv |  | 0.69 µM
Cc1c(C(=O)/C=C/c2ccccc2[N+](=O)[O-])[n+](=O)c2ccccc2n1[O-] | MIC |  |  | CS-R |  | 1.6 µg/mL
Cc1[nH]c(-c2ccc(Cl)cc2)cc1CN1CCOCC1 | MIC |  |  | 103471 |  | >64 µg/mL
C=C(C)[C@@H]1CC[C@]2(C)CCC3(C)[C@H](CC[C@@H]4[C@@]5(C)CC[C@H](O)C(C)(C)[C@@H]5CC[C@]43C)[C@@H]12 | MIC |  |  | H37Rv |  | >128 µg/mL
C[C@H]1COc2c(N3CCN(C)CC3)c(F)cc3c(=O)c(C(=O)O)cn1c23 | MIC |  |  | 001-011 (drug-resistant) |  | 0.5 µg/mL
C[C@]1(COc2ccc(OC(F)(F)F)cc2)Cn2cc([N+](=O)[O-])nc2O1 | MIC |  |  | H37Rv (INH-resistant) |  | 0.39 µg/mL
CCc1nc2ncc(F)cn2c1C(=O)NCc1ccc(N2CCN(S(=O)(=O)C(F)(F)F)C(OC)=N2)c(F)c1 | EC50 | fluorescence |  |  |  | 0.00447 µM
CCCCCCCCO[C@H]1OC(CS[C@H]2O[C@H](CO)[C@@H](O)[C@@H]2O)[C@@H](O)[C@@H]1O | MIC |  |  | H37Ra |  | 4 µg/mL
O=C1OCc2c1cc1ccc(O)c(OC3OC(CO)C(O)C(O)C3O)c1c2-c1ccc2c(c1)OCO2 | MIC bound | BACTEC |  | H37Rv |  | >12.5 µg/mL
CO[C@H]1C=C(C)[C@@H](C)[C@H]2[C@H]3CCC4[C@@]5(C)CC[C@H](O)C(C)(C)[C@@H]5CC[C@@]4(C)[C@]3(C)C[C@H](O)[C@]21C | MIC |  |  | H37Rv |  | 32 µg/mL
C[C@@H]1CN(C(=O)CCOS(C)(=O)=O)[C@@H](C)CN1C(=O)CCOS(C)(=O)=O | MIC | BACTEC |  | H37Rv |  | ≥12.5 µg/mL
COC(C)(C)[C@@H](O)CC[C@@H](C)[C@H]1CC[C@@]2(C)[C@@H]3CC[C@H]4C(C)(C)[C@@H](O)CC[C@@]45C[C@@]35CC[C@]12C | MIC |  |  | H37Rv |  | >64 µg/mL
CC(=O)N(C)c1ccc(Nc2ccc(Nc3ccc(N(C)C(C)=O)cc3)c3c2C(=O)c2ccccc2C3=O)cc1 | inhibition | BACTEC | 12.5 µg/mL | H37Rv |  | 81%
O=c1nc(SCc2ccccc2Cl)c2[nH]cnc2[nH]1 | MIC |  |  | H37Ra |  | 16 µg/mL
Cc1c(CN2CCN(C)CC2)c(CN2CCN(C)CC2)c(C)n1Cc1ccccc1 | MIC |  |  | 103471 |  | >64 µg/mL
COc1ccc2nc(C)cc(-c3cnccc3C(=O)NC(=S)N=N)c2c1 | MIC |  |  | H37Rv |  | 5 µg/mL
Cc1c(CN2CCOCC2)cc(-c2ccc(Cl)cc2)n1C1CCCCC1 | MIC |  |  | 103471 |  | 8 µg/mL
COc1ccc(Sc2nc(Cl)nc3nc[nH]c23)cc1 | MIC90 |  |  | H37Rv |  | >6.25 µg/mL
CCc1cc(C(N)=S)ccn1 | MIC |  |  | 2 lab strains (TH1314-susceptible) |  | 2.5 µg/mL
COc1cc(CN2CCC3(CC2)OCCc2sccc23)ccc1O | EC50 |  |  | H37Rv |  | >100 µM
Cc1c(CN2CCN(C)CC2)c(CN2CCN(C)CC2)c(-c2ccc(Cl)cc2)n1C1CCCCC1 | MIC |  |  | 103471 |  | 8 µg/mL
N#C[B][n+]1ccc(C(=O)NNC(c2ccccc2)C(F)(F)F)cc1 | inhibition | BACTEC | 0.5 µM |  |  | 0%
CC1=CC[C@]2(C)CC[C@]3(C)C(CCC4[C@@]5(C)CC[C@H](O)C(C)(C)C5CC[C@]43C)C2[C@@H]1C | MIC |  |  | H37Rv |  | >64 µg/mL
c1ccc(CN2CCC3(CC2)OCCc2sccc23)cc1 | EC50 |  |  | H37Rv |  | 5 µM
Cc1ccccc1CSc1nc(=O)[nH]c2nc[nH]c12 | MIC90 |  |  | H37Rv |  | >6.25 µg/mL
COc1cc(-c2nn3c(C(F)(F)F)nnc3s2)cc(OC)c1OC | MIC | resazurin |  | Clinical isolate |  | 8 µg/mL
C[C@H]1[C@H](C)CC[C@]2(CO)CC[C@]3(C)C(=CC[C@@H]4[C@@]5(C)CC[C@H](O)C(C)(C)[C@@H]5CC[C@]43C)[C@H]12 | MIC |  |  | H37Rv |  | 32 µg/mL
O=C(NCc1ccc(N2CCN(S(=O)(=O)C(F)(F)F)C=N2)c(F)c1)c1c(C(F)F)nc2cnccn12 | EC50 | fluorescence |  |  |  | 0.0646 µM
C/C=C(/COC(C)=O)C(=O)OC1C=C(C=O)C(C)(C)C=C1C | MIC bound | BACTEC |  | H37Rv |  | >12.5 µg/mL
CCn1cc(C(=O)O)c(=O)c2cc(F)c(N3CCN(c4nnc(SCC(=O)c5ccc(C)cc5)s4)C(C)C3)c(OC)c21 | inhibition | broth dilution | 20 µg/mL | H37Rv |  | 0%
Cc1ncc(COP(=O)(O)O)c(C2N[C@H](C(=O)O)CS2)c1O | MIC bound | BACTEC |  | H37Rv |  | >12.5 µg/mL
CC(/C=C/[C@H](C)C(C)C)[C@H]1CC[C@@H]2[C@]1(C)CC[C@H]1[C@]23C=C[C@]2(C[C@@H](O)CC[C@]12C)O3 | MIC |  |  | H37Rv |  | 1 µg/mL
O=C(OCCCl)N1CCC2(CC1)OCCc1sccc12 | EC50 |  |  | H37Rv |  | >100 µM
O=C1C2Nc3ccccc3N=C2OC1c1cccc([N+](=O)[O-])c1 | MIC bound | BACTEC |  | H37Rv |  | >12.5 µg/mL
O=[N+]([O-])c1cn2c(n1)OC1(CCCCC1)C2 | MIC |  |  | H37Rv |  | 0.015 µg/mL
O=C(N/C(=C\c1ccc(/C=C(\NC(=O)c2ccccc2)c2nc3cc([N+](=O)[O-])ccc3[nH]2)cc1)c1nc2cc([N+](=O)[O-])ccc2[nH]1)c1ccccc1 | MIC bound | resazurin |  | H37Rv |  | >6.25 µg/mL
Cc1c(CN2CCOCC2)cc(-c2ccc(Cl)cc2)n1Cc1ccccc1 | MIC |  |  | 103471 |  | 8 µg/mL
CCn1cc(C(=O)O)c(=O)c2cc(F)c(N3CCN(c4nnc(SCC(=O)c5ccc(OC)cc5)s4)C(C)C3)c(OC)c21 | inhibition | broth dilution | 20 µg/mL | H37Rv |  | 0%
O=[N+]([O-])c1cn2c(n1)OC(CCl)C2 | MIC |  |  | H37Rv |  | 0.12 µg/mL
CO[C@H]1/C=C/O[C@@]2(C)Oc3c(C)c(O)c4c(O)c(c(/C=N/N5CCN(C)CC5)c(O)c4c3C2=O)NC(=O)/C(C)=C\C=C\[C@H](C)[C@H](O)[C@@H](C)[C@@H](O)[C@@H](C)[C@H](OC(C)=O)[C@@H]1C | MIC | resazurin |  | H37Rv | Rifampicin-resistant S522L | 3.5 µM
O=[N+]([O-])c1cn2c(n1)OC(c1ccccc1)C2 | MIC |  |  | H37Rv |  | 0.95 µg/mL
O=C(Nc1cccc2c1C(=O)c1ccc(Nc3cc(NC(=O)c4ccccc4)c4c(c3)C(=O)c3ccccc3C4=O)cc1C2=O)c1ccccc1 | inhibition | BACTEC | 12.5 µg/mL | H37Rv |  | 5%
c1ccc2c(CNc3ccc(N4CCSCC4)cc3)cccc2c1 | MIC |  |  | 103471 |  | 8 µg/mL
CCCCCCCCCCCc1c(O)c(=O)c2c(oc3c(=O)c(CCCCCCCCCCC)c(O)c(=O)c3n2-c2ccc(N(C)C)cc2)c1=O | inhibition | BACTEC | 12.8 µg/mL | H37Rv |  | 9%
CCCCNC(=O)COc1ccc(/C=C(/C(=O)c2ccc(OC)cc2)c2ccccc2)cc1 | MIC100 |  |  | H37Rv |  | >250 µg/mL
NC(Cc1ccc(O)cc1)C(=O)N/N=C/c1cccc2ccccc12 | MIC | BACTEC |  | H37Rv |  | ≥12.5 µg/mL
Cc1ccccc1CSc1ncnc2nc[nH]c12 | MIC |  |  | H37Ra |  | >12.8 µg/mL
COC(=O)C(=O)C(C(=O)C(=O)Nc1ccccc1C(=O)OC)c1nc2ccc(C(=O)c3ccccc3)cc2[nH]c1=O | MIC bound | BACTEC |  | H37Rv |  | >12.5 µg/mL
CC(=O)O[C@H]1CC[C@]2(C)[C@H]3CC[C@]4(C)[C@@H](C(C)/C=C/[C@H](C)C(C)C)CC[C@H]4[C@@]34C=C[C@]2(C1)O4 | MIC |  |  | H37Rv |  | 8 µg/mL
Cc1ccc2oc3c(=O)c4ccccc4c(=O)c=3oc2c1 | MIC bound | BACTEC |  | H37Rv |  | >12.5 µg/mL
COc1cc(CSc2nc(=O)[nH]c3nc[nH]c23)cc(OC)c1 | MIC90 |  |  | H37Rv |  | >6.25 µg/mL

The last 6 rows once more:

| SMILES | measure | method | dose | strain | changes | value |
|---|---|---|---|---|---|---|
| NC(Cc1ccc(O)cc1)C(=O)N/N=C/c1cccc2ccccc12 | MIC | BACTEC |  | H37Rv |  | ≥12.5 µg/mL |
| Cc1ccccc1CSc1ncnc2nc[nH]c12 | MIC |  |  | H37Ra |  | >12.8 µg/mL |
| COC(=O)C(=O)C(C(=O)C(=O)Nc1ccccc1C(=O)OC)c1nc2ccc(C(=O)c3ccccc3)cc2[nH]c1=O | MIC bound | BACTEC |  | H37Rv |  | >12.5 µg/mL |
| CC(=O)O[C@H]1CC[C@]2(C)[C@H]3CC[C@]4(C)[C@@H](C(C)/C=C/[C@H](C)C(C)C)CC[C@H]4[C@@]34C=C[C@]2(C1)O4 | MIC |  |  | H37Rv |  | 8 µg/mL |
| Cc1ccc2oc3c(=O)c4ccccc4c(=O)c=3oc2c1 | MIC bound | BACTEC |  | H37Rv |  | >12.5 µg/mL |
| COc1cc(CSc2nc(=O)[nH]c3nc[nH]c23)cc(OC)c1 | MIC90 |  |  | H37Rv |  | >6.25 µg/mL |